Values of other authors in patent publication US5565200A, “Pharmaceutical preparations derived from korean mistletoe” (priority 1995, dated 1996).

Tested on: AIDS
Details: purified IL-2, cited from earlier work

IL-2: Purified IL-2 which stimulates the production of CD4 cells
CD4 count of AIDS patients (AIDS patients): improve CD4 count of AIDS patients | side effects (symptoms similar to acute influenza): serious side effects which have symptoms similar to acute influenza
